PubChem BioAssay AID504761 – Drosophila RNAi Screening Center – 2011
The screen tested about 22,000 reagents; below is an unselected part of those that have a named target and a result. Of all reagents, 116 (0.52%) are marked active. 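Calls depend on retest data that are not deposited; infection was ranked per plate without normalising between plates; the unit of the infection score is not given.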 The raw values are shown without normalisation. Further read-outs or replicates are left out here. Reagent sequences are not shown. Not given: the amount of reagent, the time to read-out.

Aim: 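Insect host genes that dengue virus relies on to spread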 (primary screen)
System: D.Mel-2 cells from Drosophila
Reagents: long dsRNA against Drosophila genes
Challenge: infection with dengue virus type 2; dose and infection time not stated
Read-out: 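Per well on two replicate plates, imaging gave the percent of cells positive for viral envelope protein, ranked by infection, and a nuclear count of cells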
Reading the numbers: infection score: higher = more virus-infected cells; cell count: higher = more cells in the well
Call rule: 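Low infection ranks in the two replicates (chance level up to 0.065) followed by a retest with a 1.5-fold or larger significant decrease, p below 0.05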
Calls: active = confirmed: knock-down lowers infection; inactive = not picked or not confirmed

tay (tay bridge) [DRSC20142]: infection score, replicate 1 = 2; cell count, replicate 1 = 6293; Outcome = inactive
Naa30A (N(alpha)-acetyltransferase 30 A) [DRSC23214]: infection score, replicate 1 = 2.03; cell count, replicate 1 = 6545; Outcome = inactive
Naa30A (N(alpha)-acetyltransferase 30 A) [DRSC30080]: infection score, replicate 1 = 3.9; cell count, replicate 1 = 6849; Outcome = inactive
CG10898 [DRSC14279]: infection score, replicate 1 = 7.37; cell count, replicate 1 = 6157; Outcome = inactive
CG17493 [DRSC03798]: infection score, replicate 1 = 5.83; cell count, replicate 1 = 6592; Outcome = inactive
CG15635 [DRSC00470]: infection score, replicate 1 = 3.99; cell count, replicate 1 = 6245; Outcome = inactive
CG15635 [DRSC22873]: infection score, replicate 1 = 1.41; cell count, replicate 1 = 6252; Outcome = inactive
CG32454 [DRSC11652]: infection score, replicate 1 = 6.72; cell count, replicate 1 = 2350; Outcome = inactive
RpL27A (Ribosomal protein L27A) [DRSC00781]: infection score, replicate 1 = 6.22; cell count, replicate 1 = 4231; Outcome = inactive
RpL27A (Ribosomal protein L27A) [DRSC28466]: infection score, replicate 1 = 8.57; cell count, replicate 1 = 1459; Outcome = inactive
HHEX (Hematopoietically expressed homeobox) [DRSC16186]: infection score, replicate 1 = 19.2; cell count, replicate 1 = 4336; Outcome = inactive
HHEX (Hematopoietically expressed homeobox) [DRSC29035]: infection score, replicate 1 = 4.65; cell count, replicate 1 = 2278; Outcome = inactive
Osi4 (Osiris 4) [DRSC12134]: infection score, replicate 1 = 5.97; cell count, replicate 1 = 6632; Outcome = inactive
CG1105 [DRSC12528]: infection score, replicate 1 = 7.03; cell count, replicate 1 = 6007; Outcome = inactive
CG1105 [DRSC27366]: infection score, replicate 1 = 4.97; cell count, replicate 1 = 7422; Outcome = inactive
